Results published in paper PMC7755911, “High affinity nanobodies block SARS-CoV-2 spike receptor binding domain interaction with human angiotensin converting enzyme” (2020).
pEC50: −log10 of the molar value.

What was measured:
[1] = target: SARS-CoV-2 RBD mutant W436R (SARS-CoV-2) (UniProt P0DTC2)
[2] = target: SARS-CoV-2 RBD mutant V367F (SARS-CoV-2) (UniProt P0DTC2)
[3] = target: SARS-CoV-2 RBD mutant N354D/D364Y (SARS-CoV-2) (UniProt P0DTC2); test: ELISA

Substance | pEC50 [1] | pEC50 [2] | pEC50 [3]
NIH-CoVnb-112 | 8.95 | 8.95 | 
NIH-CoVnb-112 (VHH) |  |  | 8.95
